A mixed list of measured activities; the numbers were collected in NIAID ChemDB.

Common to all: tests in culture; species: Hepatitis B virus; read-out: EC50

Neighbouring rows are from separate reports.

compound	cell line	strain	value
C[C@H](COc1cc(N)nc(N)n1)OCP(=O)(O)O	HEPAD79		3 µg/mL
Nc1ncnc2c1ncn2CCCOCP(=O)(O)O	HB611		32 µM
Nc1nc(=O)n([C@@H]2C[C@@H](O)[C@H](CO)O2)cc1Cl	2.2.15		10 µM
Nc1nc(=O)n([C@H]2O[C@@H](CO)C[C@H]2F)cc1I	2.2.15		>10 µM
Nc1nc(=O)n(CCOCP(=O)(O)O)cc1-c1ccccc1	HB611		200 µM
Nc1ncnc2c1ncn2C[C@@H](CO)OCP(=O)(O)O	HepG2 2.2.15		0.06 µM
Nc1ncnc2c1ncn2CCOCP(=O)(O)O	HepG2	Mutation M550I	0.31 µM
Nc1nc(N)c(Br)c(OCCOCP(=O)(O)O)n1	HEPAD79		6 µg/mL
Nc1ncnc2c1ncn2[C@H]1O[C@@H](CO)[C@H](O)[C@@H]1O	HepG2.2.15		0.8 µM
Nc1nc(Cl)nc2c1ncn2[C@@H]1C[C@@H](O)[C@H](CO)O1	2.2.15		>10 µM
Nc1ccnc2c1ncn2CCOCP(=O)(O)O	HB611		<17.4 µM
Nc1ccn([C@@H]2CS[C@H](CO)O2)c(=O)n1	Huh7	Mutation M552V	33 µM
Nc1nc(=O)n([C@H]2O[C@@H](CO)C[C@H]2F)cc1Cl	2.2.15		>50 µM
Nc1ncnc2c1ncn2[C@@H]1CC[C@H](CO)O1	HepG2.2.15		5 µM
Nc1ncnc2c1ncn2[C@@H]1C=C[C@H](CO)O1	2.2.15		0.8 µM
O=c1[nH]c(=O)n([C@H]2C[C@H](F)[C@@H](CO)O2)cc1CO			5–10 µg/mL
Nc1ncnc2c1ncn2[C@@H]1C[C@@H](N)[C@H](CO)O1	2.2.15		>10 µM
C#C[C@]1(CO)O[C@@H](n2cnc3c(N)nc(N)nc32)C[C@@H]1O	2.2.15		0.17 µM
Nc1nc(=O)n([C@@H]2C[C@@H](O)[C@H](CO)O2)cc1Cl	HepG2.2.15		10 µM
O=c1ccn(CCOCP(=O)(O)O)c(=O)[nH]1	HB611		200 µM
Cc1cn([C@@H]2C[C@@H](N=[N+]=[N-])[C@H](CO)O2)c(=O)[nH]c1=O	2.2.15		>10 µM
O=c1[nH]c(=O)n([C@@H]2O[C@@H](CO)C[C@H]2F)cc1F	2.2.15		>10 µM
Nc1nc(Cl)nc2c1ncn2[C@@H]1C[C@@H](O)[C@H](CO)O1	HepG2.2.15		>10 µM
Nc1ccn([C@@H]2C=C[C@H](CO)O2)c(=O)n1	2.2.15		<0.1 µM
Nc1ccn([C@@H]2CS[C@H](CO)O2)c(=O)n1	HepG2		0.005 µM
Nc1ccn([C@@H]2C[C@@H](F)[C@H](CO)O2)c(=O)n1	2.2.15		0.5 µM
O=c1[nH]c(=O)n([C@@H]2O[C@@H](CO)C[C@H]2F)cc1Cl	2.2.15		>50 µM
Cc1cn([C@@H]2C[C@@H](O)[C@H](CO)O2)c(=O)[nH]c1=O	2.2.15		0.19 µM
Nc1ccn(C[C@H](CO)OCP(=O)(O)O)c(=O)n1	HB611		200 µM
Nc1cc(OCCOCP(=O)(O)O)nc(N)n1	HEPAD79		0.003 µg/mL
Nc1ncnc2c1ncn2[C@@H]1C[C@@H](O)[C@H](CO)O1	2.2.15		0.1–1.9 µM
Nc1ncnc2c1ncn2CCOCP(=O)(O)O		WILD TYPE	3.9 µM
Nc1nc(=O)n([C@@H]2C[C@@H](F)[C@H](CO)O2)cc1F	2.2.15		4 µM
Nc1nc(N)c2ncn([C@H]3CO[C@@H](CO)O3)c2n1		WILD TYPE	79 µM
Nc1nc(=O)n([C@@H]2CC[C@H](CO)O2)cc1F	HepG2.2.15		0.1 µM
CC(C)(C)C(=O)SCCOP(=O)(OCCSC(=O)C(C)(C)C)OC[C@H]1CC[C@@H](n2cnc3c(N)ncnc32)O1	2.2.15		0.08 µM
Cc1cn([C@@H]2C[C@@H](O)[C@H](CO)O2)c(=O)nc1N	HepG2.2.15		0.24 µM
Nc1nc2c(ncn2CC2(OCP(=O)(O)O)CC2)c(=O)[nH]1	HepG2 2.2.15		0.5 µM
Nc1ncnc2c1ncn2[C@@H]1C[C@@H](O)[C@H](CO)O1	2.2.15		0.1–1.9 µM
Nc1nc(=O)n([C@@H]2C=C[C@H](CO)O2)cc1F	2.2.15		<0.1 µM
Cc1cn([C@@H]2C[C@@H](F)[C@H](CO)O2)c(=O)[nH]c1=O	2.2.15		>10 µM
Nc1nccc2c1ncn2C[C@H]1COP(=O)(O)CO1	HB611		200 µM
Nc1ncnc2c1ncn2[C@H]1O[C@@H](CO)C[C@H]1F	2.2.15		>10 µM
Nc1ccn([C@H]2CC[C@@H](CO)O2)c(=O)n1	HB611		1.6–2.8 µM
Cc1cn([C@H]2O[C@@H](CO)C[C@H]2F)c(=O)nc1N	2.2.15		>100 µM
CC(C)(C)C(=O)SCCOP(=O)(OCCSC(=O)C(C)(C)C)OC[C@H]1CC[C@@H](n2cnc3c(N)ncnc32)O1	2.2.15		0.08 µM
Cc1cn([C@@H]2C[C@@H](F)[C@H](CO)O2)c(=O)[nH]c1=O	HepG2.2.15		>10 µM
CCCCC1=NC(N)=C2NC=NC2(O)N1OCP(=O)(O)O	HB611		45 µM
Nc1nc(=O)n([C@@H]2CS[C@H](CO)O2)cc1F	HepG2.2.15		0.04 µM
[N-]=[N+]=N[C@@H]1C[C@@H](n2cc(F)c(N)nc2=O)O[C@H]1CO	2.2.15		0.11 µM
Nc1nc(N)c2ncn([C@H]3CC[C@@H](CO)O3)c2n1	HepG2 2.2.15		10 µM
Nc1ncnc2c1ncn2[C@@H]1C=C[C@H](CO)O1	HepG2.2.15		>10 µM

The first 3 rows once more:

compound	cell line	strain	value
C[C@H](COc1cc(N)nc(N)n1)OCP(=O)(O)O	HEPAD79		3 µg/mL
Nc1ncnc2c1ncn2CCCOCP(=O)(O)O	HB611		32 µM
Nc1nc(=O)n([C@@H]2C[C@@H](O)[C@H](CO)O2)cc1Cl	2.2.15		10 µM

ECn: concentration that inhibits the pathogen or its effect by n%. An empty or dashed field is not shown. a–b is a range or a potency band.